IKCa1 IC50, IC50 and % Inhibition data for 2 substances are collected here from patent US20120121591A1 (priority 2009, published 2012).

Protein sequences, listed by entry. Tags and fused reporters are not part of them. Lines headed by an entry give the natural chain unless they say otherwise; changes in a name come on top. Residues count along the entry.
UniProt O15554, whole entry: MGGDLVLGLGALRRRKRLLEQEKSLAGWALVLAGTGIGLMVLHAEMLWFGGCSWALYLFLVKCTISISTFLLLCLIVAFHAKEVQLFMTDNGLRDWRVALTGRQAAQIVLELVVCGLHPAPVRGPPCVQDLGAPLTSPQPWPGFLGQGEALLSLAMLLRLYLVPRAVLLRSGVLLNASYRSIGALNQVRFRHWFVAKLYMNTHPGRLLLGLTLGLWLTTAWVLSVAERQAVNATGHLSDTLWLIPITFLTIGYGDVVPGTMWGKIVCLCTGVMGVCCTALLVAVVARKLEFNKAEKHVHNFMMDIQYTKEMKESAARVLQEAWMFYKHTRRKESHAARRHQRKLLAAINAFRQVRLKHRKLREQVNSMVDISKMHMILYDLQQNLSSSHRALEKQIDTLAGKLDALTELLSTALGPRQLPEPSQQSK
UniProt P29474, 2-1203: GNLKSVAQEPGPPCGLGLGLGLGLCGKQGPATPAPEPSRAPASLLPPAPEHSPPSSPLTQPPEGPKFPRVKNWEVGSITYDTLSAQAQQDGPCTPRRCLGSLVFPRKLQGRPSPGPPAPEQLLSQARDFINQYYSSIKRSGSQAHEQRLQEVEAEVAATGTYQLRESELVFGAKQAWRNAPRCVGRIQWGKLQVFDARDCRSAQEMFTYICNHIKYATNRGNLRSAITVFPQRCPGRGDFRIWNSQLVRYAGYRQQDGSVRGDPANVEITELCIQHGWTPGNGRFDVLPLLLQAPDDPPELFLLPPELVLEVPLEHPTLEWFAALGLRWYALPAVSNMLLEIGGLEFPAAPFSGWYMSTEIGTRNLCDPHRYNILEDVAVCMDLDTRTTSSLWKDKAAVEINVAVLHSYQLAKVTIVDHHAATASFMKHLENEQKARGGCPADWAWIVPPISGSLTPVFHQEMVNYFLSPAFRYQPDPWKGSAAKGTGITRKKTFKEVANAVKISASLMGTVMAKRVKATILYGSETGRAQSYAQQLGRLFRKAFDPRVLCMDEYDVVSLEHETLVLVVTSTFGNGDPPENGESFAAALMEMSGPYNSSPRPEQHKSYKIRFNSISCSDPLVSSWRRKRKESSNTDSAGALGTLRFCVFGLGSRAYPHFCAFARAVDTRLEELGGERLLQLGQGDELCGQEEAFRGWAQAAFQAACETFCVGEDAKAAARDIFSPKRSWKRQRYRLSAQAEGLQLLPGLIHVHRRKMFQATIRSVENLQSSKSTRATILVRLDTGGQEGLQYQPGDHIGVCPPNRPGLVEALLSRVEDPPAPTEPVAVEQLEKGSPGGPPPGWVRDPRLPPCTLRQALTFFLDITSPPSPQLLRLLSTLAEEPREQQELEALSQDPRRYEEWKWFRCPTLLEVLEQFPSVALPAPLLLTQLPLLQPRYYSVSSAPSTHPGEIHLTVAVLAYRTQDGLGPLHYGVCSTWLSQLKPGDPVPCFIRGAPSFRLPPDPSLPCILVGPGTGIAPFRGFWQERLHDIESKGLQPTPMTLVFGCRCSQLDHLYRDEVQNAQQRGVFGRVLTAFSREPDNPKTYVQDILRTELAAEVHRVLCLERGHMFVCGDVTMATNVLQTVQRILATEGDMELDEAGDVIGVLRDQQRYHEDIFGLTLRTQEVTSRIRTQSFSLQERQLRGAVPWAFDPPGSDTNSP
UniProt Q01064: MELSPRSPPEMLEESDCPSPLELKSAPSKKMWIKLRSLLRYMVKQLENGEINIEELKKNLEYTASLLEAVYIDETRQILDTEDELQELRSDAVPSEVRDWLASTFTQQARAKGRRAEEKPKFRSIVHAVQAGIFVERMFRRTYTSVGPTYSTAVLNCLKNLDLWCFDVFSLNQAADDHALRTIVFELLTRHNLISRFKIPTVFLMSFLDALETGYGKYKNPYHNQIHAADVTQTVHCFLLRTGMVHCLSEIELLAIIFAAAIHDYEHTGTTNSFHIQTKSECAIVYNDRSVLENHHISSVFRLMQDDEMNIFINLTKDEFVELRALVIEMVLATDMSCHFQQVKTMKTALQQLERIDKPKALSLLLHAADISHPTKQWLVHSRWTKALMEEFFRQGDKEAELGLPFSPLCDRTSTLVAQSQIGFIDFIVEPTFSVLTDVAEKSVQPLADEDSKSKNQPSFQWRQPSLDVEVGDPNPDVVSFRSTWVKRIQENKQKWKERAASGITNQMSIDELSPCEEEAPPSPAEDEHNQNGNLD
UniProt P25929, whole entry: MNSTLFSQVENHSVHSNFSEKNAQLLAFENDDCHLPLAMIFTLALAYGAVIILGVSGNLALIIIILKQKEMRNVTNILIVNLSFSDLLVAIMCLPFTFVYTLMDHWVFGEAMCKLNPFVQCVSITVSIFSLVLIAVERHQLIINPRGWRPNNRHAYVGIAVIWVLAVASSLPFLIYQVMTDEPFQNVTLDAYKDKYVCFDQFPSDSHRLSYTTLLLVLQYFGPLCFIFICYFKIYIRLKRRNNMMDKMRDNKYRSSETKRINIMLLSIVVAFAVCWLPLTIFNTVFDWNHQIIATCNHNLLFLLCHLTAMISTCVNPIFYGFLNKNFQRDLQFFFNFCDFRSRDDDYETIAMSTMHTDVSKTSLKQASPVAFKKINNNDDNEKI
UniProt Q92633: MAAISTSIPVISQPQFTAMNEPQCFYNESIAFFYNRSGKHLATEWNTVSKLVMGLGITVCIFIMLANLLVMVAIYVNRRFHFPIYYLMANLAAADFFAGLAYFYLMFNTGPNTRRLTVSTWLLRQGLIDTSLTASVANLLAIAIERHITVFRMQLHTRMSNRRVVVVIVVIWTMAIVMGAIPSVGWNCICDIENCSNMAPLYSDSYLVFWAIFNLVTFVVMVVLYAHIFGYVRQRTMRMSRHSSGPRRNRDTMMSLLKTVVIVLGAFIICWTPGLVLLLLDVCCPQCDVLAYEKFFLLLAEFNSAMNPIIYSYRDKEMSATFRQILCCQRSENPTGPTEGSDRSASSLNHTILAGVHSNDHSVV

A word on the IC50: it is the concentration needed to halve the response being measured. Read a low IC50 as higher potency. In general, % Inhibition refers to the relative decrease from the control value, in per cent.

For one assay, the target named is human IKCa1 (human) (UniProt O15554). The experiment in a line: cell-based or functional assay.
Assay [1] concerns the target Ca Channel (N) (Cerep target) (human). The experiment in a line: Cerep safety pharmacology binding assay.
For assay [2], the target named is K Channel (Kv) (Cerep target) (human). The experiment in a line: Cerep safety pharmacology binding assay.
The target of assay [3] is K Channel (KATP) (Cerep target) (human). As to the kind of experiment: Cerep safety pharmacology binding assay.
For assay [4], the target named is Nitric Oxide (endothelial) (Cerep target) (human) (UniProt P29474). As to the kind of experiment: Cerep safety pharmacology binding assay.
The target of assay [5] is Phosphodiestrase 1B (Cerep target) (human) (UniProt Q01064). As to the kind of experiment: Cerep safety pharmacology binding assay.
Assay [6] deals with Neuropeptide Y1 (Cerep target) (human) (UniProt P25929). As to the kind of experiment: Cerep safety pharmacology binding assay.
Assay [7] has as its target Ca Channel (N) (Cerep target) (human).
Assay [8] deals with K Channel (Kv) (Cerep target) (human).
For assay [9], the target named is K Channel (KATP) (Cerep target) (human).
For assay [10], the target named is Nitric Oxide (endothelial) (Cerep target) (human) (UniProt P29474).
The target of assay [11] is Phosphodiestrase 1B (Cerep target) (human) (UniProt Q01064).
Assay [12] deals with Neuropeptide Y1 (Cerep target) (human) (UniProt P25929).
The target in assay [13] is Lysophosphotodic A1 (Cerep target) (human) (UniProt Q92633). The experiment in a line: Cerep safety pharmacology binding assay.
For assay [14] the target is unchanged.

20 kDa PEG-[Lys16]ShK (peptide): the IKCa1 IC50 with human IKCa1 (human) is more than 10 µM. For the same substance, the IC50 in assay [1] was 3 µM; in [2], 0.023 µM; in [3], 2.7 µM; in assay [4], 0.59 µM; in [5] it was 27 µM; in assay [6] it was 22 µM. Further, the % Inhibition in assay [7] is 58%; in assay [8], 90%; in assay [9], 54%; in assay [10], 90%; in assay [11] it was 68%; in [12], 51%.
Substance “20 kDa PEG-[Lys16]ShK (peptide; other documents disagree on this pair)” returned an IC50 in [13] of 5.5 µM. This substance returned a % Inhibition in assay [14] of 62%.
